Anti-infective test results gathered from many reports (values: NIAID ChemDB through PubChem).

Common to all: toxicity to cultured cells; cell line: MT-4; read-out: CC50

CCn: concentration that lowers growth or viability of the cells by n%. Rows are shuffled and stem from different studies. Blank or dashed fields: not listed here.

smiles	method	value
C=CCNc1nc(Nc2ccc(C#N)cc2F)nc(Oc2ccc(C)cc2)n1	-	186 µM
Cc1cc(C#N)cc(C)c1Oc1nc(Nc2ccc(C#N)cc2)ncc1C#CC(=O)NCCN1CCN(C(=O)OC(C)(C)C)CC1	MTT	22.4 µM
CC(C)N1C(=O)c2cccn2S(=O)(=O)c2ccc(Cl)cc21	-	>300 µM
Cc1cc(C#N)cc(C)c1Oc1nc(Nc2ccc(C#N)cc2)ncc1C#CC(=O)NCCN1CCOCC1	MTT	>240 µM
C=CCN1C(=O)c2cccn2S(=O)(=O)c2ccc(Cl)cc21	-	32 µM
CCCCCC(=O)Nc1ccc(Cl)cc1S(=O)(=O)n1cccc1C(=O)OCC	-	>200 µM
CCc1c(Cc2cccc(Cc3nc(N(C)C)[nH]c(=O)c3CC)c2)nc(N(C)C)[nH]c1=O	MTT	>100 µM
COc1ccc(CCN2C(=O)/C(=C\c3cccc(Cl)c3)N(CCc3ccc(OC)c(OC)c3)C2=S)cc1OC	MTT	47.2 µg/mL
CCOC(=O)c1cccn1S(=O)(=O)c1ccc(NC(N)=O)cc1	-	128.8 µM
CCOP(=O)(OCC)C(N[C@@H](Cc1ccccc1)[C@H](O)CN(CC(C)C)S(=O)(=O)c1ccc(OC)cc1)c1ccc2c(c1)OCO2	MTT	13.2 µg/mL
C=CNc1nc(Nc2ccc(C#N)cc2F)nc(Oc2ccc3ccccc3c2Br)n1	-	>255.1 µM
CCCN1C(=O)c2cccn2S(=O)(=O)c2ccc(Cl)cc21	-	>300 µM
CCOC(=O)c1cccn1S(=O)(=O)c1ccc(N)cc1	-	>200 µM
COc1ccc(CCN2C(=O)/C(=C\c3cccc(Oc4ccccc4)c3)N(CCc3ccc(OC)c(OC)c3)C2=S)cc1OC	MTT	37.8 µg/mL
CCOP(=O)(CC[C@]1(C(F)(F)F)CC[C@H](n2cnc3c(N)ncnc32)C1)OCC	MTT	98 µM
CCOP(=O)(OCC)C(N[C@@H](Cc1ccccc1)[C@@H](O)CN(CC(C)C)S(=O)(=O)c1ccc(OC)cc1)c1ccc([N+](=O)[O-])cc1	MTT	3.94 µg/mL
O=C1Nc2ccc(Cl)cc2[C@@](C#CC2CC2)(C(F)(F)F)O1	MTT	>6.34 µM
C=CCNc1nc(Nc2ccc(C#N)cc2F)nc(Oc2ccc3ccccc3c2Cl)n1	-	>279 µM
CCc1c(Cc2cccc(Cc3nc(SC)nc(OC)c3CC)c2)nc(SC)nc1OC	MTT	>100 µM
C#C[C@]1(O)[C@H]2OC[C@]1(CO)O[C@H]2n1ccc(=O)[nH]c1=O	MTT	≥30 µM
Nc1ccn([C@@H]2OC[C@@H](CO)[C@H]2O)c(=O)n1	MTT	>100 µM
CCCCCCCCCCCCOCCO[C@@H]1O[C@H](COS(=O)(=O)O)[C@@H](OS(=O)(=O)O)[C@H](OS(=O)(=O)O)[C@H]1OS(=O)(=O)O	-	>100 µg/mL
CCN1C(=O)c2cccn2S(=O)(=O)c2ccc(Cl)cc21	-	>300 µM
CCCCCCCCCCCCCCCCCCCCCCOCCCO[C@@H]1O[C@H](COS(=O)(=O)O)[C@H](OS(=O)(=O)O)[C@H](OS(=O)(=O)O)[C@H]1OS(=O)(=O)O	-	>100 µg/mL
CCOP(=O)(/C=C/[C@]1(C(F)(F)F)CC[C@H](n2cnc3c(Cl)nc(N)nc32)C1)OCC	MTT	>100 µM
COc1ccc2c(C#N)c3ccccc3c(NC(=S)N[C@H]3C[C@H](n4cc(C)c(=O)[nH]c4=O)O[C@@H]3CO)c2c1OC	-	5.12 µg/mL
CCCCOP(=O)(N[C@@H](Cc1ccccc1)[C@H](O)CN(CC(C)C)S(=O)(=O)c1ccc(OC)cc1)OCCCC	MTT	13.08 µg/mL
COc1ccc(/C=C/C(=O)c2ccccc2O)cc1	MTT	>400 µM
CCc1c(Cc2cccc(Cc3nc(SC)n(C)c(=O)c3CC)c2)nc(SC)n(C)c1=O	MTT	>100 µM
N#Cc1c(-c2ccc(Cl)cc2)c2c(n([C@@H]3O[C@H](CO)[C@@H](O)[C@H](O)[C@H]3O)c1=S)-c1ccccc1C2	-	3.01 µM
COc1ccc(C(=O)/C=C/c2ccc(Br)cc2)c(O)c1	MTT	32.54 µM
CC1=C[C@@H](OCP(=O)(O)O)C[C@H]1n1cnc2c(N)ncnc21	XTT	90 µM
COc1ccc(CCN2C(=O)/C(=C\c3cc(OC)c(OC)c(OC)c3)N(CCc3ccc(OC)c(OC)c3)C2=S)cc1OC	MTT	13.45 µg/mL
Nc1ccn([C@H]2CC[C@@H](CO)O2)c(=O)n1	MTT	1860 µM
COP(=O)(c1cc(C)cc(CCC#N)c1)c1c(C(N)=O)[nH]c2ccc(Cl)cc12	MTS	27.3 µM
COc1ccc(CCN2C(=O)/C(=C\c3cccc(Br)c3)N(CCc3ccc(OC)c(OC)c3)C2=S)cc1OC	MTT	>109.2 µg/mL
CCCCCCCCCCCCCCOCC(COCCCCCCCCCCCCCC)CO[C@@H]1O[C@H](COS(=O)(=O)O)[C@H](OS(=O)(=O)O)[C@H](OS(=O)(=O)O)[C@H]1OS(=O)(=O)O	-	>100 µg/mL
N#Cc1ccc(Nc2nc(N)nc(Oc3ccc4ccccc4c3Cl)n2)c(F)c1	-	252 µM
CCOCn1c(Cc2cccc(Cc3[nH]c(=O)[nH]c(=O)c3CC)c2)c(CC)c(=O)[nH]c1=O	MTT	>100 µM
C=C(C)[C@@H]1CC[C@]2(C(=O)N[C@@H](CC(C)C)C(=O)O)CC[C@]3(C)[C@H](CC[C@@H]4[C@@]5(C)CC[C@H](OC(=O)C(C)(C)CC(=O)O)C(C)(C)[C@@H]5CC[C@]43C)[C@@H]12	-	12 µM
COc1ccc(/C=C/C(=O)c2ccc(OC)cc2)cc1	MTT	236 µM
C=C(C)[C@@H]1CC[C@]2(C(=O)NCCCCCCCNC(C)=O)CC[C@]3(C)[C@H](CC[C@@H]4[C@@]5(C)CC[C@H](O)C(C)(C)[C@@H]5CC[C@]43C)[C@@H]12	-	>10 µM
C=CCOCn1c(Cc2cccc(Cc3[nH]c(=O)[nH]c(=O)c3CC)c2)c(CC)c(=O)[nH]c1=O	MTT	>100 µM
C#C[C@@]1(O)[C@@H](CO)O[C@@H](n2ccc(N)nc2=O)[C@@H]1O	MTT	0.02 µM
C=C(C)[C@@H]1CC[C@]2(C(=O)NCCCCCCNC(C)=O)CC[C@]3(C)[C@H](CC[C@@H]4[C@@]5(C)CC[C@H](OC(=O)CC(C)(C)C(=O)O)C(C)(C)[C@@H]5CC[C@]43C)[C@@H]12	-	7.5 µM
COc1ccc(CCN2C(=O)/C(=C\c3ccccc3Cl)N(CCc3ccc(OC)c(OC)c3)C2=S)cc1OC	MTT	23.1 µg/mL
CC(C)[C@H](NC(=O)OCc1cncs1)C(=O)N[C@@H](Cc1ccccc1)[C@H](O)CN1CCN(Cc2ccccc2)C[C@H]1C(=O)NC(C)(C)C	-	55.42 µM
Cc1ccc(Oc2nc(N)nc(Nc3ccc(C#N)cc3F)n2)cc1	-	163 µM
COCCNC(=O)C#Cc1cnc(Nc2ccc(C#N)cc2)nc1Oc1c(C)cc(C#N)cc1C	MTT	13.6 µM
CCCCCCCCCCCCCCOCC(COCCCCCCCCCCCCCC)CO[C@@H]1O[C@H](COS(=O)(=O)O)[C@@H](OS(=O)(=O)O)[C@H](OS(=O)(=O)O)[C@H]1OS(=O)(=O)O	-	>100 µg/mL
CCOC(=O)c1cccn1S(=O)(=O)c1cc(Cl)ccc1NC(=O)C(C)(C)C	-	42 µM
CCCCCCCCCCCCOCCO[C@@H]1O[C@H](COS(=O)(=O)O)[C@H](OS(=O)(=O)O)[C@H](OS(=O)(=O)O)[C@H]1OS(=O)(=O)O	-	>100 µg/mL
CCOP(=O)(OCC)C(N[C@@H](Cc1ccccc1)[C@H](O)CN(CC(C)C)S(=O)(=O)c1ccc(OC)cc1)c1ccc([N+](=O)[O-])cc1	MTT	14.24 µg/mL
Nc1nc(N)c2ncn([C@H]3CC[C@](/C=C/P(=O)(O)O)(C(F)(F)F)C3)c2n1	MTT	>100 µM
Cc1ccc(Oc2nc(Nc3ccc(C#N)cc3F)nc(NC(C)C)n2)cc1	-	278 µM
Cc1cc(C#N)cc(C)c1Oc1nc(Nc2ccc(C#N)cc2)ncc1SCC(=O)NCCCN1CCOCC1	MTT	23.6 µM
NC(=O)CC[C@H](NC(=O)COc1ccc(NC(=O)[C@@H](N)Cc2ccc(O)cc2)cc1)C(=O)N[C@@H](Cc1c[nH]c2ccccc12)C(=O)N[C@@H](CC(=O)O)C(=O)N[C@@H](Cc1ccccc1)C(=O)NCC(=O)O	-	>1000 µg/mL

7 of the rows above, restated:

smiles	method	value
Nc1ccn([C@H]2CC[C@@H](CO)O2)c(=O)n1	MTT	1860 µM
COc1ccc(/C=C/C(=O)c2ccccc2O)cc1	MTT	>400 µM
COc1ccc(CCN2C(=O)/C(=C\c3cccc(Cl)c3)N(CCc3ccc(OC)c(OC)c3)C2=S)cc1OC	MTT	47.2 µg/mL
NC(=O)CC[C@H](NC(=O)COc1ccc(NC(=O)[C@@H](N)Cc2ccc(O)cc2)cc1)C(=O)N[C@@H](Cc1c[nH]c2ccccc12)C(=O)N[C@@H](CC(=O)O)C(=O)N[C@@H](Cc1ccccc1)C(=O)NCC(=O)O	-	>1000 µg/mL
C=CCNc1nc(Nc2ccc(C#N)cc2F)nc(Oc2ccc(C)cc2)n1	-	186 µM
C=CCNc1nc(Nc2ccc(C#N)cc2F)nc(Oc2ccc3ccccc3c2Cl)n1	-	>279 µM
CCOP(=O)(/C=C/[C@]1(C(F)(F)F)CC[C@H](n2cnc3c(Cl)nc(N)nc32)C1)OCC	MTT	>100 µM